Measurements taken from article PMC3642679, “Architecture of the Pol III–clamp–exonuclease complex reveals key roles of the exonuclease subunit in processive DNA synthesis and repair” (The EMBO Journal, 2013).

T1: Pol III residues 1-270 (E. coli, UniProt P10443 1-270)
T1 construct: DNA polymerase III α subunit, E. coli, N-terminal fragment (PHP domain, residues 1-270); also called Pol III^1–270; truncation to residue 270; source: E. coli BL21 (DE3), purified
T1 sequence (looked up): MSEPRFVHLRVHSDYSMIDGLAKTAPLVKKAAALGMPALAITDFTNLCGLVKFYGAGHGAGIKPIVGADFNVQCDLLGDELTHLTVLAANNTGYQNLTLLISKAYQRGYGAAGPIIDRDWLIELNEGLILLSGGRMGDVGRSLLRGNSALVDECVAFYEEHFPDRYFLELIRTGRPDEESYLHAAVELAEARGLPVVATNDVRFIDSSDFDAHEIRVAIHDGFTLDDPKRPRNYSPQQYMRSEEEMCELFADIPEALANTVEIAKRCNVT

T2: Pol III residues 1-285 (E. coli, UniProt P10443 1-285)
T2 construct: DNA polymerase III α subunit, E. coli, N-terminal fragment; source: E. coli BL21 (DE3), purified
T2 sequence (looked up): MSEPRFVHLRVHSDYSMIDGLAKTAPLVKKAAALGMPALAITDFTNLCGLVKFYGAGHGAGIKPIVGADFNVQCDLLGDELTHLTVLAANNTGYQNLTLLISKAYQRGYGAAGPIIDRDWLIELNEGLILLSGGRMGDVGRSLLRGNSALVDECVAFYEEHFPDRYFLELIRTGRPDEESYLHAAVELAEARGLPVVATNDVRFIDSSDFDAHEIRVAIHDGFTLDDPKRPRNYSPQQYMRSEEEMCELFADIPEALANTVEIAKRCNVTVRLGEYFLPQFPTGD

T3: DNA polymerase III α subunit (Pol III) (E. coli, UniProt P10443 1-1160)
T3 construct: DNA polymerase III α subunit, E. coli; Both an N-His6 and a non-tagged form were purified; source: E. coli BL21 (DE3), purified (N-His6: Histrap, Resource Q, Superdex 200; non-tagged: Source Q, Heparin, Resource Q, Superdex 200)
T3 sequence (looked up): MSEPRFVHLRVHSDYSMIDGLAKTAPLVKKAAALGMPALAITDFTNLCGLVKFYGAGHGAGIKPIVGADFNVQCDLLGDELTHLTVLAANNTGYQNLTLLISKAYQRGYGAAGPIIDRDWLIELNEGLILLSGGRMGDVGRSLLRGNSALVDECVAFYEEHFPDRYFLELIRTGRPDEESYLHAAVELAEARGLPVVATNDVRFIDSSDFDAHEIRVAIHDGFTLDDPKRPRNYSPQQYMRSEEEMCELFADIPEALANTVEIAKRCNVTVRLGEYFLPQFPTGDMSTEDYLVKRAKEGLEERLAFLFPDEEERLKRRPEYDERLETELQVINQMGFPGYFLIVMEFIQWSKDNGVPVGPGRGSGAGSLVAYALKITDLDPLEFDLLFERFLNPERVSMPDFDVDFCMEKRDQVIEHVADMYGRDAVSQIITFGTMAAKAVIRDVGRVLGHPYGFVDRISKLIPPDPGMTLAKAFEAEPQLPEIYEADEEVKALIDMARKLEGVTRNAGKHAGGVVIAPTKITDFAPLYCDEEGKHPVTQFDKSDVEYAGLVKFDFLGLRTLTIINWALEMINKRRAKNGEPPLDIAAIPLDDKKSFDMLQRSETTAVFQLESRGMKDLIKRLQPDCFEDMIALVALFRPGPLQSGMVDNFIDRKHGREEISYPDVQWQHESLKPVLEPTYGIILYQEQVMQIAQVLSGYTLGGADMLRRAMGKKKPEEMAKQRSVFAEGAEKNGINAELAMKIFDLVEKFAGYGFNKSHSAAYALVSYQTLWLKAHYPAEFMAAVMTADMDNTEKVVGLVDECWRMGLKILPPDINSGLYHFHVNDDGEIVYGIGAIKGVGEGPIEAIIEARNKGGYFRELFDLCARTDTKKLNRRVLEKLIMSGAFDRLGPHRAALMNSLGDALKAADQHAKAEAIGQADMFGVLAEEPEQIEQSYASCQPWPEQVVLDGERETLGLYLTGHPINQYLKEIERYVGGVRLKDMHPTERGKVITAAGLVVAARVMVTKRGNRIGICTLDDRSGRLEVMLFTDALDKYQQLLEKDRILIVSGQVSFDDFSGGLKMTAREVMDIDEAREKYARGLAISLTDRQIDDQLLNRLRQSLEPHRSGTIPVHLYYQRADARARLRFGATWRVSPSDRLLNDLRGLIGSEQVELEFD

T4: Pol III–exonuclease complex (E. coli, UniProt P10443 1-1160; P03007 1-243)
T4 construct: DNA polymerase III α subunit, E. coli; as m1; DNA polymerase III ε subunit (exonuclease), E. coli; as m3; The partner of the clamp in the samples with all three proteins; source: E. coli BL21 (DE3), each protein purified, then mixed
T4 sequence (looked up) 1: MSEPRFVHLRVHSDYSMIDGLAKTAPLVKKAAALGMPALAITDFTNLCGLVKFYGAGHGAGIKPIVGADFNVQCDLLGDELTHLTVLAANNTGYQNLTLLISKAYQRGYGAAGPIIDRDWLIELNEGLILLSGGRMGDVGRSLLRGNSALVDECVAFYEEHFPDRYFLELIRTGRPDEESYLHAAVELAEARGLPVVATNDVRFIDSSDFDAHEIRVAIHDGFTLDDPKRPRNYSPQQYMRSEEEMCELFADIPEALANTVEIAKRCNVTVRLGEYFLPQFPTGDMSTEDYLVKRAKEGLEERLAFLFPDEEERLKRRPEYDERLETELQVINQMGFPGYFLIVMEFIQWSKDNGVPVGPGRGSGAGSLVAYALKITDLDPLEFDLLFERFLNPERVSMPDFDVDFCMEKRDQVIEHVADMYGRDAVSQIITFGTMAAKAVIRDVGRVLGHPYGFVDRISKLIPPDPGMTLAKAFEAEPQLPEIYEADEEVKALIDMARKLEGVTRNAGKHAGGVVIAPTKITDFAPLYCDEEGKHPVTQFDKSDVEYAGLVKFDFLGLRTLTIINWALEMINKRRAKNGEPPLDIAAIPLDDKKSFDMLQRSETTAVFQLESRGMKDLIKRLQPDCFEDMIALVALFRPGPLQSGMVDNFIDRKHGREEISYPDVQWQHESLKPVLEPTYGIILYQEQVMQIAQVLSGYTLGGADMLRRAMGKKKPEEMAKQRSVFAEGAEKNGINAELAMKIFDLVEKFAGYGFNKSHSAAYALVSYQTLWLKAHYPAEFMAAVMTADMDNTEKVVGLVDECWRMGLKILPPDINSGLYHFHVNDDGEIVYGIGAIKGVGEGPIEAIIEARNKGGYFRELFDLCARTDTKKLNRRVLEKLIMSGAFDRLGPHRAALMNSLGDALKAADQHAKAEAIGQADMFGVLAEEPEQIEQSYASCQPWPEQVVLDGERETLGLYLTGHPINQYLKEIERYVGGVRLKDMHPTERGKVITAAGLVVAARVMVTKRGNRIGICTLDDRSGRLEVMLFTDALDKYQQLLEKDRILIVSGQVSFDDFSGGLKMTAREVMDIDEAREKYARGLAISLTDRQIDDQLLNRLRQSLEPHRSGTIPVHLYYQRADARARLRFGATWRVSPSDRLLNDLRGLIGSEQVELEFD
T4 sequence (looked up) 2: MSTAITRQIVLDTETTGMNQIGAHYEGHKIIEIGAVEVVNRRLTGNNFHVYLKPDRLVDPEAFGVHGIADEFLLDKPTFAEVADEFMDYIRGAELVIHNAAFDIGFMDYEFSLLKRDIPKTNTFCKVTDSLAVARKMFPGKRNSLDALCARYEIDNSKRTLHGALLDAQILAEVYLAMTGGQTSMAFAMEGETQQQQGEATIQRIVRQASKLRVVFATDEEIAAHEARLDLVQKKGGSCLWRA

B1: exonuclease (ε subunit) (enzyme, E. coli, UniProt P03007 1-243, looked up)
chain: MSTAITRQIVLDTETTGMNQIGAHYEGHKIIEIGAVEVVNRRLTGNNFHVYLKPDRLVDPEAFGVHGIADEFLLDKPTFAEVADEFMDYIRGAELVIHNAAFDIGFMDYEFSLLKRDIPKTNTFCKVTDSLAVARKMFPGKRNSLDALCARYEIDNSKRTLHGALLDAQILAEVYLAMTGGQTSMAFAMEGETQQQQGEATIQRIVRQASKLRVVFATDEEIAAHEARLDLVQKKGGSCLWRA
notes: DNA polymerase III ε subunit (proofreading exonuclease), E. coli; A non-tagged form was obtained by removal of the His6 tag with human rhinovirus 3C protease
B2: DNA sliding clamp (β subunit) (natural protein, E. coli, UniProt P0A988 1-366, looked up)
chain: MKFTVEREHLLKPLQQVSGPLGGRPTLPILGNLLLQVADGTLSLTGTDLEMEMVARVALVQPHEPGATTVPARKFFDICRGLPEGAEIAVQLEGERMLVRSGRSRFSLSTLPAADFPNLDDWQSEVEFTLPQATMKRLIEATQFSMAHQDVRYYLNGMLFETEGEELRTVATDGHRLAVCSMPIGQSLPSHSVIVPRKGVIELMRMLDGGDNPLRVQIGSNNIRAHVGDFIFTSKLVDGRFPDYRRVLPKNPDKHLEAGCDLLKQAFARAAILSNEKFRGVRLYVSENQLKITANNPEQEEAEEILDVTYSGAEMEIGFNVSYVLDVLNALKCENVRMMLTDSVSSVQIEDAASQSAAYVVMPMRL
notes: DNA polymerase III β subunit (sliding clamp), E. coli; the clamp is composed of two β monomers; Both an N-His6 and a non-tagged form were purified; source: E. coli BL21 (DE3), purified (N-His6: Histrap, Superdex 200; non-tagged: Phenyl sepharose, Hitrap Q, Hitrap SP)

Key:
Settings in all cases: both partners purified
Pol III residues 1-270 = target: T1, Pol III residues 1-270; assay: SEC; N-terminal fragments of Pol III (1-270, 1-285) with and without exonuclease; shift of the elution profile (Figure 2E)
Pol III residues 1-285 = target: T2, Pol III residues 1-285; assay: as above
[1] = target: T3, DNA polymerase III α subunit (Pol III); assay: SEC; as a1 with the exonuclease added: Pol III (wild type or C-terminal deletions) + exonuclease + clamp; wild type at 1.5, 5 and 10 μM; Superdex 200; 50 mM Hepes pH 7.5, 150 mM NaCl, 2 mM DTT; fractions by SDS-PAGE; KD estimated from two Gaussians of the clamp profile
[2] = target: T4, Pol III–exonuclease complex; assay: as above
[3] = target: T3, DNA polymerase III α subunit (Pol III); assay: SEC; Pol III (wild type, M923A+F924A or C-terminal deletions) mixed with clamp; wild type at 1.5, 5 and 10 μM; 50 μl on a PC3.2/30 Superdex 200 column; 50 mM Hepes pH 7.5, 150 mM NaCl, 2 mM DTT; fractions by SDS-PAGE, band intensities; KD estimated from a sum of two Gaussians fitted to the clamp profile, corrected five-fold for dilution, average of nine experiments

| Binder | binding result (Pol III residues 1-270) | binding result (Pol III residues 1-285) | binding result [1] | Kd [2] [nM] | Kd [3] [nM] |
| --- | --- | --- | --- | --- | --- |
| B1 | binds | binds | binds |  |  |
| B2 |  |  |  | 300 ± 100 | 1200 ± 200 |
